Experimental data as given in patent US20160264649A1 (published 2016).

Legend:
Assay in all cases: cell-based or functional assay
[1] = target: HIV-1 Env of isolate MG RM-C-001 (HIV-1)
[2] = target: HIV-1 Env of isolate MG RM-C-002 (HIV-1)
[3] = target: HIV-1 Env of isolate MG RM-C-007 (HIV-1)
[4] = target: HIV-1 Env of isolate MG RM-C-005 (HIV-1)
[5] = target: HIV-1 Env of isolate MG RM-C-004 (HIV-1)
[6] = target: HIV-1 Env of isolate MG RM-C-006 (HIV-1)

| Binder | neutralization IC50 [1] | neutralization IC50 [2] | neutralization IC50 [3] | neutralization IC50 [4] | neutralization IC50 [5] | neutralization IC50 [6] |
| --- | --- | --- | --- | --- | --- | --- |
| PGT-128 monoclonal antibody (5114_A19) (antibody, V domains shown) VH: QPQLQESGPTLVEASETLSLTCAVSGDSTAACNSFWGWVRQPPGKGLEWVGSLSHCASYWNRGWTYHNPSLKSRLTLALDTPKNLVFLKLNSVTAADTATYYCARFGGEVLRYTDWPKPAWVDLWGRGTLVTVSS VL: QSALTQPPSASGSPGQSITISCTGTSNNFVSWYQQHAGKAPKLVIYDVNKRPSGVPDRFSGSKSGNTASLTVSGLQTDDEAVYYCGSLVGNWDVIFGGGTKLTVL | > 50 µg/mL | 0.019 µg/mL | 0.111 µg/mL | 0.03 µg/mL | 0.025 µg/mL | 0.014 µg/mL |
| PGT-130 monoclonal antibody (5147_N06) (antibody, V domains shown) VH: QVQLQESGPGLVKPAETLSLTCSVSGESINTGHYYWGWVRQVPGKGLEWIGHIHYTTAVLHNPSLKSRLTIKIYTLRNQITLRLSNVTAADTAVYHCVRSGGDILYYYEWQKPHWFSPWGPGIHVTVSS VL: QSALTQPPSASGSLGQSVTISCNGTSSDIGGWNFVSWYQQFPGRAPRLIIFEVNKRPSGVPGRFSGSKSGNSASLTVSGLQSDDEGQYFCSSLFGRWDVVFGGGTKLTVL | > 50 µg/mL | > 50 µg/mL | > 50 µg/mL | 0.935 µg/mL | 2.76 µg/mL | 0.095 µg/mL |
| PGT-131 monoclonal antibody (5136_H01) (antibody, V domains shown) VH: QVQLQESGPGLVKPSETLSLTCTVSGDSINTGHHYWGWVRQVPGKGPEWIAHIHYNTAVLHNPALKSRVTISIFTLKNLITLSLSNVTAADTAVYFCVRSGGDILYYIEWQKPHWFYPWGPGILVTVSS VL: QSALTQPPSASGSLGQSLTISCSGTGSDIGSWNFVSWYQQFPGRAPNLIIFEVNRRRSGVPDRFSGSKSGNTASLTVSGLRSEDEAEYFCSSLSGRWDIVFGGGTKVTVL | > 50 µg/mL | > 50 µg/mL | > 50 µg/mL | 1.36 µg/mL | 3.71 µg/mL | 0.611 µg/mL |
| PGT-135 monoclonal antibody (5343_B08; 5344_E16) (antibody, V domains shown) VH: QLQMQESGPGLVKPSETLSLSCTVSGDSIRGGEWGDKDYHWGWVRHSAGKGLEWIGSIHWRGTTHYKESLRRRVSMSIDTSRNWFSLRLASVTAADTAVYFCARHRHHDVFMLVPIAGWFDVWGPGVQVTVSS VL: EIVMTQSPDTLSVSPGETVTLSCRASQNINKNLAWYQYKPGQSPRLVIFETYSKIAAFPARFVASGSGTEFTLTINNMQSEDVAVYYCQQYEEWPRTFGQGTKVDIK | 10.1 µg/mL | > 50 µg/mL | > 50 µg/mL | > 50 µg/mL | 0.046 µg/mL | > 50 µg/mL |
| PGT-136 monoclonal antibody (5329_C19; 5366_P21) (antibody, V domains shown) VH: QLQLQESGPGLVKPSETLSLTCTVSGGSMRGTDWGENDFHYGWIRQSSAKGLEWIGSIHWRGRTTHYKTSFRSRATLSIDTSNNRFSLTFSFVTAADTAVYYCARHKYHDIFRVVPVAGWFDPWGQGLLVTVSS VL: EIVMTQSPPTLSVSPGETATLSCRASQNVKNNLAWYQLKPGQAPRLLIFDASSRAGGIPDRFSGSGYGTDFTLTVNSVQSEDFGDYFCQQYEEWPRTFGQGTKVDIK | 7.52 µg/mL | > 50 µg/mL | > 50 µg/mL | > 50 µg/mL | 0.034 µg/mL | > 50 µg/mL |
| PGT-137 monoclonal antibody (5345_I01) (antibody, V domains shown) VH: EVHLEESGPGLVRPSETLSLTCTASGGSIRGGEWGDSDYHWGWVRHSPEKGLEWIGSIHWRGTTHYNAPFRGRGRLSIDLSRNQFSLRLTSVTAEDTAVYYCVKHKYHDIVMVVPIAGWFDPWGQGLQVTVSS VL: EIMMTQSPAILSVSPGDRATLSCRASQSVKNNLAWYQKRPGQAPRLLIFDTSSRASGIPARFSGGGSGTEFTLTVNSMQSEDFATYYCQQYEEWPRTFGQGTKVEIK | 21.5 µg/mL | 8.03 µg/mL | > 50 µg/mL | > 50 µg/mL | 0.026 µg/mL | > 50 µg/mL |
